# Measurements as given in patent publication US20090074766A1, “Methods of inhibiting HIV-2 infection” (priority 2007, published 2009).
# Protein sequences, listed by entry. Tags and fused reporters are not part of them.
# UniProt P51681, whole entry: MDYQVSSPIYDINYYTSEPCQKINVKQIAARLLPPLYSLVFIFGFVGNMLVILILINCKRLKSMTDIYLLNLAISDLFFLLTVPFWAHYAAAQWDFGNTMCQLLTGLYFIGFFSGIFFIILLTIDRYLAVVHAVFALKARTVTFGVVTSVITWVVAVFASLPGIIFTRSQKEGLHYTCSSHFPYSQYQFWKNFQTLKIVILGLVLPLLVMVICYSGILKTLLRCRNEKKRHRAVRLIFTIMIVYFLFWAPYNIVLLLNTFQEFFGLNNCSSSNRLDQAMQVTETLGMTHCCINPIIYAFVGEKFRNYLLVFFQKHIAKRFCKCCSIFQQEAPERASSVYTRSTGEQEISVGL
# B1: PRO 140: humanized IgG4,κ anti-CCR5 monoclonal antibody, humanized version of murine mAb PA14 (antibody, chains of the INN, looked up, V domains shown)
# VH: EVQLVESGGGLVKPGGSLRLSCAASGYTFSNYWIGWVRQAPGKGLEWIGDIYPGGNYIRNNEKFKDKTTLSADTSKNTAYLQMNSLKTEDTAVYYCGSSFGSNYVFAWFTYWGQGTLVTVSS
# VL: DIVMTQSPLSLPVTPGEPASISCRSSQRLLSSYGHTYLHWYLQKPGQSPQLLIYEVSNRFSGVPDRFSGSGSGTDFTLKISRVEAEDVGVYYCSQSTHVPLTFGQGTKVEIK
# Columns and labels:
# [1] = target: HIV-1JR-FL envelope-mediated membrane fusion (HeLa-EnvJRFL and CEM NKR-CCR5 cells) (Homo sapiens, UniProt P51681); details: labelled 1st inhibitor with 2nd inhibitor PRO 140, equimolar; mean ± SD of 4-12 assays
# CCR5 = target: T1, CCR5 (Homo sapiens, UniProt P51681); experiment: Competition binding: inhibition of PRO 140-PE binding to CEM.NKR-CCR5 cells (flow cytometry); details: based on MFI data; 5 nM PRO 140-PE
# T1 construct: host or cells: CEM.NKR-CCR5 (transduced human T cell leukemia line)
# Experimental: Cells were washed and then analyzed by flow cytometry for both the mean fluorescence intensity (MFI) of binding and the percent of cells gated for positive binding of PRO 140-PE. Inhibition was assessed on the basis of both MFI (A) and percent cells gated (B).
# Azide was added to block CCR5 internalization during the assay. Cells were washed in PBSA and incubated with 5 nM PRO 140-PE for an additional 30 minutes prior to washing and analysis by flow cytometry using a FACSCalibur instrument (Becton Dickinson). The extent of PRO 140-PE binding was measured in terms of both the mean fluorescence intensity (MFI) and the percent of cells gated for positive staining.
molecule,measurement,setting,value
B1,CI90,[1],0.97
same,EC50,CCR5,2.5 nM
